# The entries are a selection whose mix differs from that of the whole data set. Calls of active or inactive are those of the source. Calls come from the whole dose curve; as a rule, active = well fitted inhibition curve with a large enough effect; inconclusive = small, poorly fitted or top-dose-only effect; inactive = no such curve, though single readings can be large or run the other way.
# Tested on: Plasmodium falciparum AMA1 (3D7) - RON2 peptide interaction
# Test: qHTS for Inhibitors of AMA1-RON; Towards Development of Antimalarial Drug Lead: Primary Screen;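 note: 0% = vehicle wells and -100% = peptide control; nearly all actives have a fitted effect of over 45% in size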
# Conditions: AlphaScreen AMA1-biotinylated RON2 peptide binding; at 58.2 µM (top of the series) unless noted
row,Structure (SMILES),"activity change, negative = inhibition"
1,N#Cc1ccc(C(=O)NCC2(N3CCCCC3)CCCCC2)cc1,inactive: 3.6%
2,CC(C)(C)OC(=O)N1CCC(N(C(=O)c2ccccc2)c2ccc(Cl)cc2)CC1,inactive: -9.21%
3,CCOC(=O)C(CC)C1=NC(C)(C)Cc2ccccc21.O=[N+]([O-])c1cc([N+](=O)[O-])c(O)c([N+](=O)[O-])c1 (centres undefined),inactive: -6.52%
4,CN(C)C1(CNC(=O)c2cccc(C#N)c2)CCCCC1,inactive: 27.1%
5,c1ccc(CN2CCC(Nc3ccccc3)CC2)cc1,inactive: -2.47%
6,O=c1[nH]c2ccccc2n1C1CCN(C(c2ccccc2)c2nnnn2C2CCCC2)CC1 (centres undefined),inactive: -9.38%
7,CCCN1CCC(Nc2cc(OC)cc(OC)c2)CC1,inactive: -6.26%
8,Cc1cc(N(CCCl)CCCl)ccc1C=O,inactive: 5.24%
9,CC(C)(C)n1nnnc1C(c1cccc2ccccc12)N1CCC(n2c(=O)[nH]c3ccccc32)CC1 (centres undefined),inactive: -22.5%
10,CCCCn1nnnc1C(c1ccccc1)N1CCC(n2c(=O)[nH]c3ccccc32)CC1 (centres undefined),inactive: 0.387%
11,COc1cc(C(=O)NCC2(N3CCOCC3)CCCCC2)cc(OC)c1C,inactive: -8.51%
12,O=C(NCC1(N2CCOCC2)CCCCC1)c1cc(Br)ccc1Cl,inactive: 4.04%
13,O=c1[nH]c2ccccc2n1C1CCN(C(c2cccs2)c2nnnn2C2CCCCC2)CC1 (centres undefined),inactive: -23.7%
14,COc1ccc(C(=O)NCC2(N3CCOCC3)CCCCC2)cc1OC,inactive: 12.8%
15,O=c1[nH]c2ccccc2n1C1CCN(C(c2ccnc3ccccc23)c2nnnn2C2CCCC2)CC1 (centres undefined),inactive: -6.74%
16,COc1cccc(C(c2nnnn2C(C)(C)C)N2CCC(n3c(=O)[nH]c4ccccc43)CC2)c1OC (centres undefined),inactive: -1.66%
17,CCOC(=O)N1CCC(Nc2ccc(C)cc2)CC1,inactive: -17.5%
18,N/C(=N\O)c1c(N)no[n+]1[O-],inactive: 2.87%
19,O=C(OC1CN2CCC1CC2)C1c2ccccc2C=Cc2ccccc21 (centres undefined),inactive: 4.33%
20,CCc1cc(C(=O)NCC2(N3CCCCC3)CCCCC2)sc1C,inactive: 13.6%

row,Structure (SMILES),"activity change, negative = inhibition"
1,O=c1[nH]c2ccccc2n1C1CCN(C(c2cccs2)c2nnnn2C2CCCC2)CC1 (centres undefined),inactive: -17.1%
2,O=C(O)c1cccc(Nc2c([N+](=O)[O-])cc([N+](=O)[O-])cc2[N+](=O)[O-])c1,inactive: -2.59%
3,CCCCn1nnnc1C(c1cccc(OC)c1OC)N1CCC(n2c(=O)[nH]c3ccccc32)CC1 (centres undefined),inactive: -12.4%
4,CCOc1ncccc1C(=O)NCC1(N2CCOCC2)CCCCC1,inactive: -18.1%
5,CN1CCC(Nc2ccc(F)c(Cl)c2)CC1,inactive: 6.21%
6,CC(C)(C)OC(=O)N1CCC(Nc2ccccc2)CC1,inactive: 7.02%
7,O=C(O)C1(Nc2ccccc2)CCN(Cc2ccccc2)CC1,inactive: -1.54%
8,CCCOc1ccc(C(=O)NCC2(N(C)C)CCCCC2)cc1,inactive: -0.172%
9,O=c1[nH]c2ccccc2n1C1CCN(C(c2cc3ccccc3o2)c2nnnn2C2CCCC2)CC1 (centres undefined),inactive: -28.2%
10,COc1cc(OC)cc(C(=O)NCC2(N3CCOCC3)CCCCC2)c1,inactive: 13.8%
11,COc1cccc(C(c2nnnn2C2CCCC2)N2CCC(n3c(=O)[nH]c4ccccc43)CC2)c1OC (centres undefined),inactive: -19.7%
12,COc1cccc(C(=O)N(c2cc(C)cc(C)c2)C2CCN(C(=O)OC(C)(C)C)CC2)c1,inactive: -1.87%
13,CCC(CO)(C(=O)OC1CN2CCC1CC2)c1ccccc1 (centres undefined),inactive: 7.49%
14,CN1CCC(Nc2ccc(Cl)cc2)CC1,inactive: -0.612%
15,CC(=O)N(c1ccccc1)C1CCNCC1,inactive: 15.3%
16,COc1cccc(C(c2nnnn2C2CCCCC2)N2CCC(n3c(=O)[nH]c4ccccc43)CC2)c1OC (centres undefined),inactive: -26.3%
17,CCC(c1nnnn1C1CCCCC1)N1CCC(n2c(=O)[nH]c3ccccc32)CC1 (centres undefined),inactive: -25.6%
18,O=c1[nH]c2ccccc2n1C1CCN(C(c2ccnc3ccccc23)c2nnnn2C2CCCCC2)CC1 (centres undefined),inactive: -12.1%
19,COc1cc(OC)cc(C(=O)NCC2(N3CCCCC3)CCCCC2)c1,inactive: -2.88%
20,Cc1ccc(C(=O)NCC2(N3CCCCC3)CCCCC2)o1,inactive: 20.1%

row,Structure (SMILES),"activity change, negative = inhibition"
1,Fc1ccccc1NC1CCN(Cc2ccccc2)CC1,inactive: 2.79%
2,Cc1ccc(NC2(C#N)CCN(Cc3ccccc3)CC2)cc1,inactive: 24.1%
3,Cc1ccccc1NC1(C#N)CCN(Cc2ccccc2)CC1,inactive: -6.1%
4,CC(C)(C)n1nnnc1C(c1ccnc2ccccc12)N1CCC(n2c(=O)[nH]c3ccccc32)CC1 (centres undefined),inactive: -0.399%
5,COc1ccc(C(c2nnnn2C2CCCCC2)N2CCC(n3c(=O)[nH]c4ccccc43)CC2)cc1 (centres undefined),inactive: -0.314%
6,O=C(NCC1(N2CCCCC2)CCCCC1)c1ccco1,inactive: 1.98%
7,Cn1c(=O)[nH]cc(N(CCCl)CCCl)c1=O,inactive: -14.3%
8,CN(C)c1ccc(C(=O)NCC2(N3CCCCC3)CCCCC2)cc1,inactive: -10.7%
9,CC(C)(C)n1nnnc1C(c1ccccc1)N1CCC(n2c(=O)[nH]c3ccccc32)CC1 (centres undefined),inactive: -12.7%
10,O=C1CCN(Cc2ccccc2)CC1,inactive: 2.94%
11,CCOc1ccc(C)cc1CN(CCCl)CCCl,inactive: -6.52%
12,O=C(NCC1(N2CCCCC2)CCCCC1)c1ccc(F)cc1,inactive: -2.39%
13,CCCCn1nnnc1C(c1cc2ccccc2o1)N1CCC(n2c(=O)[nH]c3ccccc32)CC1 (centres undefined),inactive: -24.6%
14,O=P1(N(CCCl)CCCl)SCCCS1,inactive: 1.6%
15,CCCCOc1ccc(C(=O)NCC2(N3CCOCC3)CCCCC2)cc1,inactive: -3.53%
16,COc1ccc(NC2CCN(CCc3ccccc3)CC2)c(OC)c1,inactive: -28.6%
17,CCOC(=O)N1CCC(Nc2ccc(F)cc2)CC1,inactive: -2.63%
18,O=c1[nH]c2ccccc2n1C1CCN(C(c2ccccc2)c2nnnn2C2CCCCC2)CC1 (centres undefined),inactive: -6.71%
19,COc1cc(C(=O)NCC2(N(C)C)CCCCC2)ccc1OC(F)F,inactive: -0.408%

# Reference: PubChem BioAssay AID720542 (National Center for Advancing Translational Sciences (NCATS), 2013)
